From article PMC12667308 (Drug Delivery, 2025)

Molecular target: α7 nAChR-expressing oocytes (Homo sapiens, UniProt P36544)
Experiment: TEVC ARA-evoked outward current in the absence of agonist
Type: cell-based

Question: For methyllycaconitine citrate salt, which “effect on the outward current evoked by 100 µM ARA” value (PNU-120596 3 µM, MLA 10 nM or Meca 10 µM pre- or coapplied 10 s, YM-254890 2–20 µM bath-applied 1–24 hour) is on record?
Answer: Neither pre- nor coapplication with either antagonist could mitigate

Question: And the “concentration required to overcome ACh stimulation” value (α7 nAChR-expressing oocytes, TEVC)?
Answer: 10 nM
